Source: article PMC6992781, “Structure of the prefusion-locking broadly neutralizing antibody RVC20 bound to the rabies virus glycoprotein” (2020)
pKd: −log10 of the molar value. Where “and” joins values, the source holds several entries; their conditions need not be identical. Identical values can stand only once.

Columns and labels:
Experiment in all cases: BLI
[1] = target: RVC20 VH(UA)/VK(Mature), recombinant human IgG1 (human)
[2] = target: RVC20 S98Y(VH), recombinant human IgG1 (human)
[3] = target: RVC20 VH(Mature)/VK(UA), recombinant human IgG1 (human)
[4] = target: RVC20 D92N(VK), recombinant human IgG1 (human)
[5] = target: RVC20 (mature), recombinant human IgG1 (human)
[6] = target: RVC20 UA Y35S(VH)/S35bN(VH)/F100fL(VH)/Y87F(VK), recombinant human IgG1 (human)
[7] = target: RVC20 inferred unmutated ancestor (UA), recombinant human IgG1 (human)
[8] = target: RVC20 T93S(VK), recombinant human IgG1 (human)

**Q.** How did the pKd [1] turn out when “RABV G ectodomain K1-S403 (F74H, W121H), strain 9147FRA (domain or fragment)” was run?
**A.** The pKd was 7.30 and 7.26 and 7.25.

**Q.** What about the pKd [2] of the same substance?
**A.** Its pKd is 7.80 and 7.75 and 7.74.

**Q.** And the pKd [3]?
**A.** The pKd was 7.58 and 7.55 and 7.53.

**Q.** What about the pKd [4] of the same substance?
**A.** Its pKd is 7.53 and 7.48 and 7.52.

**Q.** What about the pKd [5] of the same substance?
**A.** Its pKd is 7.87 and 7.78 and 7.75.

**Q.** And the pKd [6]?
**A.** The pKd was 7.36 and 7.33.

**Q.** What about the pKd [7] of the same substance?
**A.** Its pKd is 5.90 and 5.92 and 5.84.

**Q.** What about the pKd [8] of the same substance?
**A.** Its pKd is 7.75 and 7.72 and 7.70.
